Values of other authors as cited in PMC8611036, “An integrated method for optimized identification of effective natural inhibitors against SARS-CoV-2 3CLpro” (Scientific Reports, 2021).
Like-named read-outs stand apart in the source and are kept apart here.

Target: SARS-CoV-2 3CLpro (Severe acute respiratory syndrome coronavirus 2, UniProt P0DTD1)
Conditions: cited from earlier work
[1] = from literature IC50, ref Liu, Pei et al. European journal of medicinal chemistry vol. 206 (2020): 112702
[2] = test set (SARS-CoV-2 3CLpro inhibitors), collected from literature

Compound | pIC50 [1] | pIC50 [2]
NC(=O)c1ccc2c(c1)C(=O)C(=O)N2Cc1ccc2cc(-c3ccccc3)ccc2c1 | 4.6038 | 4.6038
O=C(ON1C(=O)CCC1=O)c1ccc2c(c1)C(=O)C(=O)N2Cc1ccccc1 | 4.81 | 
NC(=O)Cc1ccc2c(c1)C(=O)C(=O)N2Cc1ccc2ccccc2c1 | 4.407 | 
NC(=O)c1ccc2c(c1)C(=O)C(=O)N2Cc1ccc2cc(Br)ccc2c1 | 7.3279 | 
NC(=O)c1ccc2c(c1)C(=O)C(=O)N2Cc1ccc2ccccc2c1 | 7.347 | 
CCCCN1C(=O)C(=O)c2cc(C(N)=O)ccc21 | 4.75 | 4.75
CCCCN1C(=O)C(=O)c2cc(I)ccc21 | 4.379 | 
